Biological target: full-length single chain (FLSC) gp120-CD4 chimeric polypeptide (HIV-1 BaL; human)

full-length single chain (FLSC) gp120-CD4 chimeric polypeptide
percent of total protein in the 302 kD band after crosslinking: 25% | percent of total protein in the higher order band after crosslinking: 10%
